Data source: PubChem BioAssay AID1259414 (Drosophila RNAi Screening Center, 2018)
Screen: 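Host factors increasing or decreasing Wolbachia levels in cultured fly cells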 (primary screen). Cell system: Drosophila JW18 cells infected with Wolbachia. Reagent: long dsRNA against Drosophila genes, 0.25 µg dsRNA per well of a 384-well plate. Duration: 5 days. Conditions: cells persistently infected with Wolbachia before knock-down; no added drug. Read-out: 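Automated imaging of bacterial rRNA staining divided by host cell count, reported as plate-normalised robust z-score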. Reading the numbers: Wolbachia per cell robust z: higher = more Wolbachia per host cell than the plate typical. Rule for the call: 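Hit when robust z is 1.5 or more, or -1.5 or less, in at least two of three replicates; excludes dsRNAs with several or no targets, genes not expressed in JW18 and well A1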.
The screen tested about 24,000 reagents; below is a random part of those that have a named target and a result. Over the whole deposit, about 1,210 (5%) are marked active. 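Inactive calls also include excluded dsRNAs with several or no targets, genes unexpressed in JW18, and well A1, regardless of score.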

| gene | dsRNA | Wolbachia per cell robust z, rep 1 | Wolbachia per cell robust z, rep 2 | Wolbachia per cell robust z, rep 3 | outcome |
| --- | --- | --- | --- | --- | --- |
| Tat (GeneID 32381) | DRSC19602 | 0.529 | 0.591 | 0.856 | inactive |
| Golgin97 (GeneID 36492) | DRSC06895 | 0.305 | 0.0325 | 0.172 | inactive |
| CG7806 (GeneID 34140) | DRSC03071 | -1.19 | -7.34 | 1.41 | inactive |
| CG17855 (GeneID 34269) | DRSC02638 | -0.695 | -1.25 | -0.895 | inactive |
| cni (GeneID 34967) | DRSC03512 | 0.365 | -0.186 | -0.936 | inactive |
| CG4297 (GeneID 33222) | DRSC00651 | -0.0751 | -0.436 | -1.5 | inactive |
| CG31301 (GeneID 41865) | DRSC22164 | -0.276 | -0.512 | -1.61 | inactive |
| CG14322 (GeneID 42124) | DRSC14801 | 0.574 | 0.636 | -0.0487 | inactive |
| Rchy1 (GeneID 33901) | DRSC23118 | 1.14 | -0.223 | -0.0843 | inactive |
| Rchy1 (GeneID 33901) | DRSC26775 | 0.0311 | 0.512 | -1.61 | inactive |
| Lint-O (GeneID 31254) | DRSC18468 | -0.969 | 1.66 | 0.822 | inactive |
| Lint-O (GeneID 31254) | DRSC23789 | 2.33 | 0.262 | 0.772 | inactive |
| Ilp2 (GeneID 39150) | DRSC10968 | -0.0609 | 0.231 | 1.22 | inactive |
| Ilp2 (GeneID 39150) | DRSC29688 | -0.484 | 1.39 | -0.402 | inactive |
| Blm (GeneID 41366) | DRSC16911 | -1.73 | 1.42 | 0.365 | inactive |
| CG42587 (GeneID 8674060) | DRSC41374 | -0.114 | -0.875 | -0.421 | inactive |
| CG8563 (GeneID 38826) | DRSC10996 | -1.32 | 0.624 | 0.881 | inactive |
| Chpf (GeneID 32259) | DRSC19491 | -2.46 | 0.285 | -3.49 | active |
| Chpf (GeneID 32259) | DRSC19893 | 0.298 | -9.1 | 0.151 | inactive |
| sro (GeneID 43512) | DRSC14469 | 0.551 | 0.959 | 1.18 | inactive |
| sro (GeneID 43512) | DRSC27358 | -0.311 | 0.302 | -2.65 | inactive |
| CG12477 (GeneID 40040) | DRSC09886 | 0.888 | -0.236 | 0.736 | inactive |
| CG12477 (GeneID 40040) | DRSC24078 | 0.99 | 1.04 | 0.545 | inactive |
| Ubi-p5E (GeneID 326237) | DRSC41437 | -1.93 | 0.442 | 0.222 | inactive |
| CG12325 (GeneID 36144) | DRSC06130 | -0.0859 | -2.37 | 0.752 | inactive |
| Vha16-3 (GeneID 317846) | DRSC10872 | -0.368 | -1.19 | -0.829 | inactive |
| Vha16-3 (GeneID 317846) | DRSC25513 | -0.515 | -2.03 | -0.244 | inactive |
| Fancm (GeneID 42543) | DRSC16348 | -0.373 | 1.04 | 1.23 | inactive |

Copied from the list:
Result for Vha16-3 (GeneID 317846) [DRSC10872] in “Wolbachia per cell robust z, rep 1”: -0.368
Lint-O (GeneID 31254) [DRSC23789], Wolbachia per cell robust z, rep 1 = 2.33
